Anti-infective test results gathered from many reports (values: NIAID ChemDB through PubChem).

All rows: tests in culture; organism: HIV-1; cell line: PBL; endpoint: EC50

Lines come from different laboratories, so protocols vary. ECn is the concentration giving n% inhibition of infection, replication or growth. Two numbers with a dash give a range or band.

CCCCC#CCSc1ccccc1OC(C)=O ; result: 10 µM
Cc1cn([C@H]2C[C@H](N=[N+]=[N-])[C@@H](CO)O2)c(=O)[nH]c1=O ; strain or isolate: LAV-Bru ; read by: RT activity ; setting: 7 d ; result: <1 µM
Nc1ccn([C@H]2CC[C@@H](CO)O2)c(=O)n1 ; strain or isolate: IIIB ; read by: p24 ; result: 0.08 µM
CN=C1CN=C(c2ccc[nH]2)c2cc(Cl)ccc2N1 ; strain or isolate: N1T ; read by: p24 ; result: 0.5 µM
CC(C)C[C@H](NC(=O)[C@H](Cc1ccccc1)NC(=O)CNC(=O)CNC(=O)[C@@H](N)Cc1ccc(O[C@@H]2O[C@H](CO)[C@@H](O)[C@H](O)[C@H]2O)cc1)C(=O)O ; read by: syncytia / RT activity ; result: >100 µM
O=S1(c2ccccc2)=NC(=S)Nc2ccccc21 ; strain or isolate: RF ; read by: RT activity ; result: 0.04 µM
CC(=O)O[C@@H]1O[C@H](COC(=O)[C@H](CC(C)C)NC(=O)[C@H](Cc2ccccc2)NC(=O)CNC(=O)CNC(=O)[C@@H](N)Cc2ccc(O)cc2)[C@@H](OC(C)=O)[C@H](OC(C)=O)[C@H]1OC(C)=O ; read by: syncytia / RT activity ; result: >100 µM
Cc1cn([C@H]2C[C@H](N=[N+]=[N-])[C@@H](CO)O2)c(=O)[nH]c1=O ; strain or isolate: JR-CSF ; result: <1 µM
CC(C)C[C@H](NC(=O)[C@H](Cc1ccccc1)NC(=O)CNC(=O)CNC(=O)[C@@H](N)Cc1ccc(O)cc1)C(=O)NC[C@H]1OC(O)[C@H](O)[C@@H](O)[C@@H]1O ; read by: syncytia / RT activity ; result: >140 µM
C[C@H](Cn1cnc2c(N)nc(N)nc21)OCP(=O)(O)O ; strain or isolate: IIIB ; read by: p24 / syncytia ; result: 0.15 µM
CC1=C(C(=O)Nc2ccc(Cl)c(C(=O)OC(C)C)c2)SCCO1 ; strain or isolate: RF ; read by: p24 ; result: 0.5 µM
C1CNCCNCCCN[C@H]([C@@H]2CNCCCNCCNCCCN2)CNC1 ; strain or isolate: IIIB ; read by: p24 / ELISA ; result: 1.45 µM
CC(C)c1nc(CN(C)C(=O)N[C@H](C(=O)N[C@@H](Cc2ccccc2)C[C@H](O)[C@H](Cc2ccccc2)NC(=O)OCc2cncs2)C(C)C)cs1 ; strain or isolate: BaL ; read by: p24 ; result: 0.029 µM
Nc1ccn([C@@H]2O[C@H](CO)C[C@@H]2F)c(=O)n1 ; strain or isolate: IIIB ; read by: p24 / ELISA ; result: <2 µg/mL
Nc1nc(N)c2ncn(CCOCP(=O)(O)O)c2n1 ; strain or isolate: IIIB ; result: 0.94 µM
CCNc1cccnc1N1CCN(C(=O)c2cc3cc(OC)ccc3[nH]2)CC1 ; strain or isolate: IIIB ; read by: p24 ; result: 0.001–0.01 µM
O=C(O)P(=O)(O)O ; strain or isolate: IIIB ; read by: RT activity ; setting: 21 d ; result: <256 µM
CC12CCC3C(CCC4CCCCC43C)C1CC(F)C2=O ; strain or isolate: IIIB ; read by: syncytia ; result: 4.8 µM
C[C@H](Cn1cnc2c(N)ncnc21)OCP(=O)(O)O ; strain or isolate: IIIB ; read by: p24 / syncytia ; result: 0.37 µM
CC(C)CCC[C@@H](C)[C@H]1CC[C@H]2[C@@H]3CC[C@H]4C[C@@H](CCC=C(c5cc(Cl)c(O)c(C(=O)O)c5)c5cc(Cl)c(O)c(C(=O)O)c5)CC[C@]4(C)[C@H]3CC[C@]12C ; strain or isolate: RF ; read by: p24 ; result: 5.3 µM
COC(=O)[C@H](Cc1ccccc1)NP(=O)(O)OC[C@H]1C[C@@H](n2cnc3cnccc32)[C@H](O)[C@@H]1O ; strain or isolate: LAI ; read by: p24 ; result: 0.4 µM
CCCCCCCCCCCCOC1OC(COS(=O)(=O)O)C(OC2OC(COS(=O)(=O)O)C(OC3OC(COS(=O)(=O)O)C(OC4OC(COS(=O)(=O)O)C(OC5OC(COS(=O)(=O)O)C(OC6OC(COS(=O)(=O)O)C(OS(=O)(=O)O)C(OS(=O)(=O)O)C6O)C(OS(=O)(=O)O)C5OS(=O)(=O)O)C(O)C4OS(=O)(=O)O)C(OS(=O)(=O)O)C3O)C(OS(=O)(=O)O)C2O)C(O)C1OS(=O)(=O)O ; strain or isolate: IIIB ; read by: cytopathic effect / MTT ; result: 11.7 µg/mL
CC(C)(C)OC(=O)N[C@@H](Cc1ccccc1)[C@@H](O)C[C@@H](Cc1ccc(OCCN2CCOCC2)cc1)C(=O)N[C@H]1c2ccccc2C[C@H]1O ; strain or isolate: IIIB ; read by: p24 ; result: <0.012 µM
Nc1ncnc2c1ncn2[C@H]1CC[C@@H](CO)O1 ; strain or isolate: IIIB ; read by: p24 ; result: 0.24 µM
Cc1cn([C@H]2C[C@H](N=[N+]=[N-])[C@@H](COC(=O)CN3CCN(c4ccccc4)CC3)O2)c(=O)[nH]c1=O ; strain or isolate: CD 451 ; read by: p24 ; result: 0.18 µM
O=C(O)c1cc(O)cc(O)c1N=Nc1ccc(/C=C/c2ccc(N=Nc3c(O)cc(O)cc3C(=O)O)cc2S(=O)(=O)O)c(S(=O)(=O)O)c1 ; strain or isolate: IIIB ; read by: RT activity ; result: 2.6 µg/mL
CCc1cc(NCc2nc3c(Cl)ccc(Cl)c3o2)c(=O)[nH]c1C ; strain or isolate: D34 ; mutations: TIBO-resistant ; read by: syncytia ; result: ~9 µM
Cc1cn([C@H]2C[C@H](N=[N+]=[N-])[C@@H](CO)O2)c(=O)[nH]c1=O ; strain or isolate: Clinical isolate ; read by: RT activity ; result: 0.002 µM
CCOCn1c(Cc2cc(C)cc(C)c2)c(CC)c(=O)[nH]c1=O ; strain or isolate: IIIB ; read by: cytopathic effect / MTT / p24 ; result: 0.00045 µM
O=c1[nH]cnc2c1ncn2[C@H]1CC[C@@H](CO)O1 ; strain or isolate: BaL ; read by: p24 ; result: 3.7 µM
O=c1[nH]cnc2c1ncn2[C@H]1CC[C@@H](CO)O1 ; strain or isolate: IIIB ; read by: p24 ; result: 0.58 µM
Nc1nc(NC2CC2)c2ncn([C@H]3C=C[C@@H](CO)C3)c2n1 ; strain or isolate: IIIB ; read by: RT activity ; result: 3.7 µM
O=c1c2ccccc2n2nnc3ccc(NCCCN4CCN(CCCNc5ccc6nnn7c8ccccc8c(=O)c5c67)CC4)c1c32 ; strain or isolate: ddI-resistant ; read by: p24 ; result: 0.01 µM
CC(C)CN(C[C@@H](O)[C@H](Cc1ccccc1)NC(=O)O[C@H]1CCOC1)S(=O)(=O)c1ccc(N)cc1 ; strain or isolate: ERS104pre ; read by: p24 ; result: 0.028 µM
C=CCn1c(=O)c(C)cn([C@@H]2O[C@H](CO[Si](C)(C)C(C)(C)C)C3(OS(=O)(=O)C=C3N)[C@H]2O[Si](C)(C)C(C)(C)C)c1=O ; strain or isolate: IIIB ; read by: syncytia ; result: 0.079 µM
COC(=O)[C@H](Cc1c[nH]c2ccccc12)NP(=O)(O)OC[C@H]1O[C@@H](n2cnc3cnccc32)[C@H](O)[C@@H]1O ; strain or isolate: A012 PRE-AZT ; read by: p24 ; result: 0.0044 µM
COC(=O)[C@H](C)NP(=O)(OC[C@@H]1CC[C@H](n2cnc3c(N)ncnc32)O1)Oc1ccccc1 ; strain or isolate: IIIB ; read by: p24 ; result: 0.002 µM
COCCNC(=O)[C@@H](NC(=O)[C@H](Cc1ccc(OC)c(OC)c1OC)C[C@H](O)[C@H](Cc1ccccc1)NC(=O)OC(C)(C)C)C(C)C ; strain or isolate: LAI ; read by: RT activity ; result: 0.017 µM
O=c1[nH]cnc2c1ncn2[C@H]1CC[C@@H](CO)O1 ; strain or isolate: LAV ; read by: p24 ; result: 1.2 µM
COc1ccc2c(c1)N(C(=O)OC(C)C)[C@@H](CSC)C(=S)N2 ; strain or isolate: 19/34-TI TIBO-resistant (RT A98G L100I) ; mutations: RT-A98G L100I ; read by: p24 ; result: 0.05 µM
CC(C)=CCN1Cc2cccc3[nH]c(=S)n(c23)C[C@@H]1C ; strain or isolate: D34 ; mutations: TIBO-resistant ; read by: syncytia ; result: 75 µM
O=c1[nH]cnc2c1ncn2[C@H]1CC[C@@H](CO)O1 ; strain or isolate: IIIB ; read by: RT activity ; result: 16 µM
Cc1cn([C@H]2C[C@H](N=[N+]=[N-])[C@@H](COP(=O)(O)OC[C@H]3OC(O)[C@H](O)[C@@H](O)[C@@H]3O)O2)c(=O)[nH]c1=O ; strain or isolate: LAV-Bru ; read by: RT activity ; setting: 7 d ; result: <1 µM
CC[C@H](C)C=C(C)/C=C/C1=CC2=C(Cl)C(=O)[C@](C)(O)[C@H](CC(C)=O)C2=CO1 ; read by: p24 ; result: <25 µM
CC(C)n1nc(-c2ccc3oc(N)nc3c2)c2c(N)ncnc21 ; strain or isolate: BaL ; read by: p24 / ELISA ; result: 0.0105 µM
Fc1cccc(F)c1C1SCc2nc3ccccc3n21 ; strain or isolate: WEJO ; read by: RT activity ; result: 0.69 µM
CC(C)(C)NC(=O)[C@@H]1CN(Cc2cccnc2)CCN1C[C@@H](O)C[C@@H](Cc1ccccc1)C(=O)N[C@H]1c2ccccc2C[C@H]1O ; strain or isolate: LAI ; read by: RT activity ; result: 0.018 µM
CCc1cc(NCc2nc3c(C)ccc(C)c3o2)c(=O)[nH]c1C ; strain or isolate: IIIB ; read by: p24 ; result: <0.1 µM
Cc1ccnc2c1NC(=O)c1cccnc1N2C1CC1 ; strain or isolate: IIIB ; read by: syncytia ; result: 0.006 µg/mL
CCN(CC)C(=O)OCC1CN(C(=O)c2cc(OC)c(OC)c(OC)c2)CCN1C(=O)c1cc(OC)c(OC)c(OC)c1 ; strain or isolate: LAI ; read by: RT activity ; result: 5 µM
CC(C)=CCOc1cc(NC(=S)c2ccsc2C)ccc1Cl ; strain or isolate: IIIB ; read by: syncytia ; result: 0.004 µg/mL
NC(=O)c1cccc(N=O)c1 ; strain or isolate: LAV ; read by: ELISA ; result: <1 µM
O=[N+]([O-])c1ccccc1S(=O)(=O)c1ccccc1 ; strain or isolate: WEJO ; result: 15.9 µM
CC(C)(C)[Si](C)(C)OC[C@H]1O[C@@H](n2ccc(=O)[nH]c2=O)[C@H](O[Si](C)(C)C(C)(C)C)C12OS(=O)(=O)C=C2N ; strain or isolate: IIIB ; read by: p24 ; result: 0.156 µM
CC(C)C[C@H](NC(=O)[C@H](Cc1ccccc1)NC(=O)CNC(=O)CNC(=O)[C@@H](N)Cc1ccc(O)cc1)C(=O)OC[C@H]1O[C@@H](OCc2ccccc2)[C@H](O)[C@@H](O)[C@@H]1O ; read by: syncytia / RT activity ; result: >100 µM
O=C1CN=C(c2ccc[nH]2)c2cc(Cl)ccc2N1 ; strain or isolate: IIIB/LAI ; read by: p24 ; result: 2.6 µM
[Li+] ; strain or isolate: IIIB ; read by: p24 ; result: >1000 µg/mL
Cc1cn([C@@H]2O[C@H](CO)C3(OS(=O)(=O)C=C3N)[C@H]2O[Si](C)(C)C(C)(C)C)c(=O)[nH]c1=O ; strain or isolate: IIIB ; read by: p24 ; result: >40 µM

A second listing of 6 rows from above:

{"smiles": "C[C@H](Cn1cnc2c(N)ncnc21)OCP(=O)(O)O", "strain or isolate": "IIIB", "read by": "p24 / syncytia", "result": "0.37 µM"}
{"smiles": "CCCCC#CCSc1ccccc1OC(C)=O", "result": "10 µM"}
{"smiles": "CC(C)=CCOc1cc(NC(=S)c2ccsc2C)ccc1Cl", "strain or isolate": "IIIB", "read by": "syncytia", "result": "0.004 µg/mL"}
{"smiles": "O=C1CN=C(c2ccc[nH]2)c2cc(Cl)ccc2N1", "strain or isolate": "IIIB/LAI", "read by": "p24", "result": "2.6 µM"}
{"smiles": "CCc1cc(NCc2nc3c(C)ccc(C)c3o2)c(=O)[nH]c1C", "strain or isolate": "IIIB", "read by": "p24", "result": "<0.1 µM"}
{"smiles": "Nc1ccn([C@@H]2O[C@H](CO)C[C@@H]2F)c(=O)n1", "strain or isolate": "IIIB", "read by": "p24 / ELISA", "result": "<2 µg/mL"}